Compound potency records, mixed from different reports. Data source: NIAID ChemDB in PubChem.

Shared fields: whole-cell or culture tests; organism: HIV-1; read by: p24 / ELISA; endpoint: EC50

An empty or dashed field is not shown.

compound	strain or isolate	conditions	changes	cells	value
CCOC(=O)c1[nH]c(C)c(C(=O)O)c1C	IIIB	-	-	PBL	>10 µM
COc1cccc2[nH]cc(C(=O)C(=O)N3CCN(C(=O)c4ccccc4)C[C@H]3C)c12	BaL	-	-	Macrophage/CCR5	0.0084 µM
CCOC(=O)C12C(c3ccc(N)cc3)C3(C(=O)OCC)C4(C)OC1(C)C1(C(=O)OCC)C(c5ccc(N)cc5)C4(C(=O)OCC)C3(C)OC21C	IIIB	-	-	MT-4	0.02677 µM
O=S(=O)(Nc1cccc2ccccc12)c1ccc(F)cc1F	NL4-3	pseudotyped	-	H9	>30 µM
CCC(=O)C1=C(CC2CCC(OC)CC2)NC(=O)NC1c1ccc(O)c(Cl)c1	-	-	-	CEM	>5 µM
CCOC(=O)C12C(c3ccc(O)cc3)C3(C(=O)OCC)C4(C)OC1(C)C1(C(=O)OCC)C(c5ccc(O)cc5)C4(C(=O)OCC)C3(C)OC21C	IIIB	-	-	MT-4	0.03283 µM
CCN1C(=O)NC(=O)C(C(C)C)C1CC1CC(C)CC(C#N)C1=O	-	-	Y181C	C8166	0.06551 µM
Cc1nc(C(=O)NC(C)(C)CNC[C@H](O)[C@@]23CC[C@]4(C)[C@H](CC[C@@H]5[C@@]6(C)CC[C@H](OC(=O)[C@H]7C[C@@H](C(=O)O)C7(C)C)C(C)(C)[C@@H]6CC[C@]54C)C2=C(C(C)C)C(=O)C3)cs1	92HT599	-	-	MT-2	<1 µM
CC(C)[C@@H](CN[C@]12CC[C@@H](C3(C)CC3)[C@@H]1[C@H]1CC[C@@H]3[C@@]4(C)CC[C@H](OC(=O)[C@H]5C[C@@H](C(=O)O)C5(C)C)C(C)(C)[C@@H]4CC[C@@]3(C)[C@]1(C)CC2)N1CCS(=O)(=O)CC1	NL4-3	-	-	MT-4	0.01001–0.05 µM
CC1(C)Oc2ccc3ccc(=O)oc3c2[C@@H](OC(=O)C23CCC(C)(C(=O)O2)C3(C)C)[C@H]1OC(=O)C12CCC(C)(C(=O)O1)C2(C)C	IIIB	-	-	H9	0.00041 µM
COCCOc1ccc(CNC(=O)C[C@@]23CC[C@]4(C)[C@H](CC[C@@H]5[C@@]6(C)CC[C@H](OC(=O)[C@H]7C[C@@H](C(=O)O)C7(C)C)C(C)(C)[C@@H]6CC[C@]54C)C2=C(C(C)C)C(=O)C3)cc1	92HT599	-	-	MT-2	<1 µM
CC(C)C1=C2C(CC[C@]3(C)[C@@H]2CC[C@@H]2[C@@]4(C)CC[C@H](OC(=O)[C@H]5C[C@@H](C(=O)O)C5(C)C)C(C)(C)[C@@H]4CC[C@]23C)[C@H](NC(=O)C(C)(C)C(=O)N2CCCCC2)C1=O	92HT599	-	-	MT-2	<0.01 µM
CC[C@H](C)[C@H](NC(=O)[C@@H](C[C@H](O)[C@H](CC1CCCCC1)NC(=O)CC(C)(C)C)C(C)C)C(=O)NCc1ccccn1	IIIB	-	-	PBMC	<1 µM
Cc1nnc(C(=O)NC(C)(C)c2nc(C(=O)NCc3ccc(F)cc3)c(O)c(=O)n2C)o1	LAI	-	-	HEK293T	0.0009–0.0018 µM
CC(C)C1=C2[C@H]3CC[C@@H]4[C@@]5(C)CC[C@H](OC(=O)[C@H]6C[C@@H](C(=O)O)C6(C)C)C(C)(C)[C@@H]5CC[C@@]4(C)[C@]3(C)CC[C@@]2(CCNCC2CCNCC2)CC1=O	92HT599	-	-	MT-2	<1 µM
CC(=O)N1CCC(C(=O)N(CCCN2CCC(Cc3ccc(C(N)=O)cc3)CC2)c2ccc(C)c(Cl)c2)CC1	92UG029	-	-	CEMx174 5.25 M7	>300 µM
CC(C)(C)C1=NC(c2ccccc2)(C(F)(F)F)NC(=O)N1	HXB2	-	-	CEM	0.2829 µM
COc1ccc2[nH]c(=O)c(CN(Cc3cccnc3)S(=O)(=O)c3cccc4nsnc34)cc2c1	IIIB	-	-	MOLT-4	0.0179 µM
CC(C)C1=C2[C@H]3CC[C@@H]4[C@@]5(C)CC[C@H](OC(=O)[C@H]6C[C@@H](C(=O)O)C6(C)C)C(C)(C)[C@@H]5CC[C@@]4(C)[C@]3(C)CC[C@@]2(CCNCC(C)(C)NC(=O)c2ccc(S(C)(=O)=O)cc2)CC1=O	92HT599	-	-	MT-2	<1 µM
CC(C)C1=C2C(CC[C@]3(C)[C@@H]2CC[C@@H]2[C@@]4(C)CC[C@H](OC(=O)[C@H]5C[C@@H](C(=O)O)C5(C)C)C(C)(C)[C@@H]4CC[C@]23C)[C@H](NC(=O)C(C)(C)C(=O)NCc2ccc(Cl)cc2)C1=O	92HT599	-	-	MT-2	<0.01 µM
O=S(=O)(Nc1ccccc1)c1ccc(F)cc1F	NL4-3	pseudotyped	-	H9	>20 µM
CCC(C)(C)C(=O)C(=O)N1CCCCC1C(=O)OC(CCc1ccc(OC)c(OC)c1)c1cccc(NC(=O)CCC(=O)N[C@@H](Cc2ccccc2)[C@H](O)CN(CC(C)C)S(=O)(=O)c2ccc(OC)cc2)c1	LAI	-	-	CEM	0.0025 µM
CCC1=C(C(=O)OCC2CCCCC2)C(c2ccc(OC(O)[C@H](C)[NH3+])c(Cl)c2)NC(=O)N1	-	-	-	CEM	≤1 µM
O=S(=O)(Nc1cccc2cccnc12)c1ccccc1F	NL4-3	pseudotyped	-	H9	>50 µM
CCn1c(C)c(C(=O)NC)c(C(=O)NC)c1Cc1ccccc1	IIIB	-	-	PBL	>10 µM
CC(C)C1=C2[C@H]3CC[C@@H]4[C@@]5(C)CC[C@H](OC(=O)[C@H]6C[C@@H](C(=O)O)C6(C)C)C(C)(C)[C@@H]5CC[C@@]4(C)[C@]3(C)CC[C@@]2(CCNC[C@@H]2CCCN2)CC1=O	92HT599	-	-	MT-2	<1 µM
Cc1c(C(=O)O)c(C(=O)c2ccccc2F)c(C)n1C	IIIB	-	-	PBL	>10 µM
CC1([C@@H]2CC[C@]3(NC[C@H](CO[Si](C)(C)C(C)(C)C)N4CCS(=O)(=O)CC4)CC[C@]4(C)[C@H](CC[C@@H]5[C@@]6(C)CC[C@H](OC(=O)[C@H]7C[C@@H](C(=O)O)C7(C)C)C(C)(C)[C@@H]6CC[C@]54C)[C@@H]23)CC1	92HT599	-	-	MT-2	0.01001–0.02 µM
COC(=O)Cc1[nH]cc(-c2ccccc2)c1C(=O)OC	IIIB	-	-	PBL	>10 µM
CC(C)C1=C(c2nc(C3CCCCC3)co2)C(c2ccc(O)c(Cl)c2)NC(=O)N1	-	-	-	CEM	>5 µM
CC(C)C1=C2C(CC[C@]3(C)[C@@H]2CC[C@@H]2[C@@]4(C)CC[C@H](OC(=O)[C@H]5C[C@@H](C(=O)O)C5(C)C)C(C)(C)[C@@H]4CC[C@]23C)[C@H](NC(=O)C(C)(C)C(=O)NC2CCCCC2)C1=O	92HT599	-	-	MT-2	<0.01 µM
CCCC1=C(C(=O)OCC2CCCCC2)C(c2cccc(O)c2)NC(=O)N1	-	-	-	CEM	≤1 µM
CCCCCCCCCCCCCCCCCCOCCOP(=O)(O)CO[C@H](CO)Cn1cnc2c(N)nc(N)nc21	NRTI-MDR	-	M41L D67N K70R T215Y K219Q	PBMC	0.057 µM
COC(=O)c1c(C(=O)OC)c2n(c1C)C(c1ccc(OC)cc1)SC2	IIIB	-	-	PBL	>1 µM
CCOC(=O)C12C(c3ccc(C(F)(F)F)cc3)C3(C(=O)OCC)C4(C)OC1(C)C1(C(=O)OCC)C(c5ccc(C(F)(F)F)cc5)C4(C(=O)OCC)C3(C)OC21C	IIIB	-	-	MT-4	0.07552 µM
COC(=O)c1c(C)[nH]c(Cc2ccccc2)c1C(=O)OC	IIIB	-	-	PBL	>10 µM
CCCCCCCCNc1ccc(C2NC(=O)NC(CC)=C2C(=O)OCC2CCCCC2)cc1	-	-	-	CEM	>5 µM
CC1([C@@H]2CC[C@]3(NC[C@H](C(=O)O)N4CCS(=O)(=O)CC4)CC[C@]4(C)[C@H](CC[C@@H]5[C@@]6(C)CC[C@H](OC(=O)[C@H]7C[C@@H](C(=O)O)C7(C)C)C(C)(C)[C@@H]6CC[C@]54C)[C@@H]23)CC1	NL4-3	-	V7A	MT-4	>0.1 µM
CC1OC(OCC2OC(Oc3c(-c4cc(O)c(O)c(O)c4)oc4cc(O)cc(O)c4c3=O)C(O)C(O)C2O)C(O)C(O)C1O	IIIB	-	-	MT-4	45 µM
Cc1cn([C@H]2C[C@H](N=[N+]=[N-])[C@@H](CO)O2)c(=O)[nH]c1=O	KM018	-	-	PBMC	0.00917 µM
Cc1cn([C@H]2C[C@H](N=[N+]=[N-])[C@@H](CO)O2)c(=O)[nH]c1=O	89.6	-	-	PBMC	0.095 µM
CC(C)C1=C2[C@H]3CC[C@@H]4[C@@]5(C)CC[C@H](OC(=O)[C@H]6C[C@@H](C(=O)O)C6(C)C)C(C)(C)[C@@H]5CC[C@@]4(C)[C@]3(C)CC[C@@]2([C@@H](O)CNC(=O)c2nccn2C)CC1=O	92HT599	-	-	MT-2	<1 µM
COc1ccc(/C=C/c2cc(Cl)c3ccccc3n2)c(OC)c1	VB51	-	-	PBMC	7.34 µM
CCC1=C(C(=O)OCC2CCCCC2)[C@H](c2ccc(OC(=O)c3cccnc3)cc2)NC(=O)N1	-	-	-	CEM	≤1 µM
COc1cc2c(OC3OC(C)C(OC4OC(CO)C(O)C(O)C4O)C(O)C3OC(C)=O)c3c(c(-c4ccc5c(c4)OCO5)c2cc1OC)C(=O)OC3	89.6	-	-	PBMC	0.015 µM
CCOC(=O)c1c(C)c(C(=O)OCC)n(C)c1C	IIIB	-	-	PBL	>10 µM
NCC(NC(=O)c1ccc(-c2ccc(C(F)(F)F)c(F)c2)[nH]1)c1nc(CO)cs1	NL4-3	-	-	PBMC	0.38 µM
CCOC(=O)C12C(c3ccc(C)cc3)C3(C(=O)OCC)C4(C)OC1(C)C1(C(=O)OCC)C(c5ccc(C)cc5)C4(C(=O)OCC)C3(C)OC21C	IIIB	-	-	MT-4	0.02854 µM
COc1cccc(C2NC(=O)NC(C)=C2C(=O)OCC2CCCCC2)c1	-	-	-	CEM	1–5 µM
COC(=O)c1cc2c(c(OC)c1-c1ccc(N(C)C)cc1)OCO2	KM018	-	-	PBMC	2.32 µg/mL
CCC1=C(C(=O)OCC2CCCCC2)C(c2ccc([N+](=O)[O-])c(Cl)c2)NC(=O)N1	-	-	-	CEM	≤1 µM
O=S(=O)(Nc1cccc2cccnc12)c1ccc(F)cc1F	NL4-3	pseudotyped	-	H9	0.23 µM
COC(=O)c1cn2c(ccc3ccccc32)c1C(=O)OC	IIIB	-	-	PBL	>10 µM
CCCCCCCCCCCCCCCCCCOCCOP(=O)(O)CO[C@H](CO)Cn1cnc2c(=O)[nH]c(N)nc21	LAI	-	-	MT-2	0.009 µM
COP(=O)(c1cc(C)cc(CCC#N)c1)c1c(C(N)=O)[nH]c2ccc(Cl)cc12	NL4-3	-	K103N	MT-4	0.0015 µM
CC(C)(C)OC(=O)N1CCCCC1Cc1[nH]n(-c2nc3ccccc3[nH]2)c(=O)c1CCc1ccc(F)cc1	NL4-3	-	-	PBMC	≥1 µM
CC(C)[C@@H]1CC[C@]2(C(=O)O)CC[C@]3(C)[C@H](CC[C@@H]4[C@@]5(C)CC[C@H](OC(=O)CCCC(=O)O)C(C)(C)[C@@H]5CC[C@]43C)[C@@H]12	IIIB	-	-	H9	0.9 µM
COCCOCCOCCO[C@H](C)[C@@H](CN[C@]12CC[C@@H](C3(C)CC3)[C@@H]1[C@H]1CC[C@@H]3[C@@]4(C)CC[C@H](OC(=O)[C@H]5C[C@@H](C(=O)O)C5(C)C)C(C)(C)[C@@H]4CC[C@@]3(C)[C@]1(C)CC2)N1CCS(=O)(=O)CC1	NL4-3	-	V7A	MT-4	<0.05 µM
CCC1=C(C(=O)OCC2CCCCC2)[C@H](c2ccc([NH3+])cc2)NC(=O)N1	-	-	-	CEM	≤1 µM
CN[C@@H]1[C@H](O[C@@H]2OC[C@@H](O)[C@H](O)[C@H]2O)[C@@H](O)[C@H](O[C@H]2c3cc(C)c(C(=O)N[C@H](C)C(=O)O)c(O)c3-c3c(cc4c(c3O)C(=O)c3cc(OC)cc(O)c3C4=O)[C@@H]2O)O[C@@H]1C	IIIB	-	-	CEM	3.3 µM
Cc1cn([C@H]2C[C@H](N=[N+]=[N-])[C@@H](CO)O2)c(=O)[nH]c1=O	MJ4	-	-	PBMC	0.49 µM
CCOC(=O)C12C(c3ccccc3)C3(C(=O)OCC)C4(C)OC1(C)C1(C(=O)OCC)C(c5ccccc5)C4(C(=O)OCC)C3(C)OC21C	IIIB	-	-	MT-4	0.03051 µM
CC(=O)O[C@@H]1[C@H](OC(=O)CC(C)C)c2c(ccc3ccc(=O)oc23)OC1(C)C	IIIB	-	-	H9	1.3 µM
CC(C)c1c(Cc2ccccc2)n(COCc2ccccc2)c(=O)[nH]c1=O	SF33	-	-	MT-4	0.022 µM
CC1([C@@H]2CC[C@]3(NC[C@@H](CF)N4CCS(=O)(=O)CC4)CC[C@]4(C)[C@H](CC[C@@H]5[C@@]6(C)CC[C@H](OC(=O)[C@H]7C[C@@H](C(=O)O)C7(C)C)C(C)(C)[C@@H]6CC[C@]54C)[C@@H]23)CC1	NL4-3	-	V7A	MT-4	0.0505–0.1 µM

4 of the rows above, restated:

compound	strain or isolate	conditions	changes	cells	value
COC(=O)c1c(C)[nH]c(Cc2ccccc2)c1C(=O)OC	IIIB	-	-	PBL	>10 µM
CC(C)C1=C2C(CC[C@]3(C)[C@@H]2CC[C@@H]2[C@@]4(C)CC[C@H](OC(=O)[C@H]5C[C@@H](C(=O)O)C5(C)C)C(C)(C)[C@@H]4CC[C@]23C)[C@H](NC(=O)C(C)(C)C(=O)NCc2ccc(Cl)cc2)C1=O	92HT599	-	-	MT-2	<0.01 µM
CCCCCCCCNc1ccc(C2NC(=O)NC(CC)=C2C(=O)OCC2CCCCC2)cc1	-	-	-	CEM	>5 µM
CCOC(=O)C12C(c3ccc(O)cc3)C3(C(=O)OCC)C4(C)OC1(C)C1(C(=O)OCC)C(c5ccc(O)cc5)C4(C(=O)OCC)C3(C)OC21C	IIIB	-	-	MT-4	0.03283 µM

a–b is a range or a potency band. ECn: concentration that inhibits the pathogen or its effect by n%. Lines come from different laboratories, so protocols vary.